{"sequences": {"note": "Chains of the proteins cited; added tags and fusions are not shown. Lines headed by an entry give the natural chain unless they say otherwise; changes in a name come on top.", "UniProt P9WGL9": "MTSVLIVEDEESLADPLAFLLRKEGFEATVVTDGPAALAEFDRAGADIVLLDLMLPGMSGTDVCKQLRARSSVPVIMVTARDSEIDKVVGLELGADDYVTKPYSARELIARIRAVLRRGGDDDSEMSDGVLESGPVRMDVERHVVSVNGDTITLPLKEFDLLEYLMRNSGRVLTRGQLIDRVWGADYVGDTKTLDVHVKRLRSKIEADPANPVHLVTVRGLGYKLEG"}, "source": "paper PMC7525159", "key": {"[1]": {"molecular_target": "RegX3-P (phosphorylated His-RegX3) (UniProt P9WGL9)", "test": "EMSA", "settings": "recombinant protein, protein details: His (pET28a), probe letters rebuilt from the primers and the genome"}, "[2]": {"molecular_target": "RegX3-P (phosphorylated His-RegX3) (UniProt P9WGL9)", "test": "competition with a labelled probe", "settings": "recombinant protein; protein details: His (pET28a); probe letters rebuilt from the primers and the genome"}}, "note": "Construct, isoform or probe ends are uncertain for at least one entry.", "data": [{"sequence": "CAGCTTTCTTTGCGCTAATTTAGGCGTACTCACAGCATGGGATGACCTGGGCAAATACCTCATCTATCCGCCCGGGATAGCATGCGGCGCAGGCGGCGAATGCGGCGCAGATGAACGCAGAGTTAATTCTCACGCAACGGTCCGATATTG (double strand) [whiB3 promoter -307 to -157 (WT)]", "values": [{"measurement": "binding result", "setting": "[1]", "value": "binds"}]}, {"sequence": "CAGCTTTCTTTGCGCTAATTTAGGCGTACTCACAGCATGGGATGACCTGGGCAAATACCTCATCTATCCGCCCGGGATAGCATGCGGCGCAGGCGGCGAATGCGGCGCAGATGAACGCAGAGTTAATTCTCACGCAACGGTCCGATATTG (double strand) [whiB3 promoter -307 to -157, unlabeled competitor]", "values": [{"measurement": "binding result", "setting": "[2]", "value": "binds"}]}]}
